Anti-infective test results gathered from many reports (values: NIAID ChemDB through PubChem).

Shared fields: tests in culture; species: Mycobacterium tuberculosis

Lines come from different laboratories, so protocols vary.

smiles | cell line | dose | method | read-out | strain or isolate | result
CC[C@H]1OC(=O)[C@H](C)[C@@H](O[C@H]2C[C@@](C)(OC)[C@@H](O)[C@H](C)O2)[C@H](C)[C@@H](O[C@@H]2O[C@H](C)C[C@H](N(C)C)[C@H]2O)[C@](C)(O)C[C@@H](C)C(=O)[C@H](C)[C@@H](O)[C@]1(C)O |  |  |  | MIC50 | 23 strains | >25 µg/mL
O=C1C[C@@H]2OCC=C3CN4CC[C@]56c7ccccc7N1[C@H]5[C@H]2[C@H]3C[C@H]46 |  |  | BACTEC | MIC | H37Rv | ≥128 µg/mL
O=C(O)c1ccc(NC(C(=O)c2ccc(F)cc2)N2CCN(C(Nc3ccc(C(=O)O)c(O)c3)C(=O)c3ccc(F)cc3)CC2)cc1O |  |  | resazurin | MIC90 | H37Rv | <6.25 µg/mL
CC(C)N=c1cc2n(-c3ccc(Cl)cc3)c3ccccc3nc-2cc1Nc1ccc(Cl)cc1 |  |  |  | MIC | BCG | 0.13 µg/mL
Cc1nc([N+](=O)[O-])cn1CC(O)COC[C@H]1O[C@@H]2OC(C)(C)O[C@@H]2[C@H]2OC(C)(C)O[C@H]21 |  |  | agar | MIC | H37Rv | >12.5 µg/mL
O=C1C=C[C@@H](COC2OC(CO)C(O)C(O)C2O)O1 |  |  |  | MIC | RMP-R | 6.3 µg/mL
CC1(C)O[C@H]2[C@@H](O1)[C@@H](COCC(O)Cn1ccnc1[N+](=O)[O-])O[C@@H]1OC(C)(C)O[C@@H]12 |  |  | agar | MIC | H37Rv | 1.56 µg/mL
CCCCCCOc1ccccc1NC(=O)OCC[N+]1(C)CCCCC1 |  |  |  | MIC | My 331/88 | 62.5 µM
CO[C@H]1/C=C/O[C@@]2(C)Oc3c(C)c(O)c4c(O)c(c(/C=N/N5CCN(C)CC5)c(O)c4c3C2=O)NC(=O)/C(C)=C\C=C\[C@H](C)[C@H](O)[C@@H](C)[C@@H](O)[C@@H](C)[C@H](OC(C)=O)[C@@H]1C |  |  | agar | MIC | H37Rv | 0.1 µg/mL
O=C(O)c1ccc(NNC(=S)Nc2ccc(F)cc2)cc1O |  |  | resazurin | MIC90 | H37Rv | <6.25 µg/mL
CCCCCOc1ccccc1NC(=O)OCC[N+]1(Cc2ccccc2)CCCCC1 |  |  |  | MIC | My 331/88 | 16 µM
COc1cc2c(c(OC)c1CCC(=O)O)C=CC(C)(C)O2 |  |  | broth dilution / resazurin | MIC | H37Rv | 210 µM
CCCCCCCCCCc1cn(CC(=O)OCC)nn1 |  |  | MTT / broth dilution / absorbance | MIC | H37Rv | 0.7 µM
CC1COc2c(N3CCN(C)CC3)c(F)cc3c(=O)c(C(=O)O)cn1c23 |  |  |  | MIC50 | 18 strains | 1 µg/mL
CC1=C(O)C(C)(CCC(C)C)SC1=O |  |  |  | MIC50 | H37Rv | 230 µM
O=[N+]([O-])c1cccc2c(C3CCCCC3)cc(C3CCCCC3)nc12 |  |  |  | MIC | H37Rv | 1 µg/mL
NCC[C@H](O)C(=O)N[C@@H]1C[C@H](N)[C@@H](O[C@H]2O[C@H](CN)[C@@H](O)[C@H](O)[C@H]2O)[C@H](O)[C@H]1O[C@H]1O[C@H](CO)[C@@H](O)[C@H](N)[C@H]1O |  |  |  | MBC | BCG | 0.25 µg/mL
O=C(Cc1cccc2ccccc12)N/N=C/c1ccc(Cl)cc1Cl |  |  | BACTEC | MIC bound | H37Rv | >12.5 µg/mL
C=CCSc1ncnc2ccccc12 |  |  |  | MIC | CNCTC TBC1/47 | 250 µM
NCCC[C@H](N)CC(=O)N[C@H]1CNC(=O)[C@H]([C@H]2C[C@H](O)NC(N)=N2)NC(=O)/C(=C/NC(N)=O)NC(=O)[C@H](CO)NC(=O)[C@H](CO)NC1=O |  |  |  | MBC | BCG | 2 µg/mL
CCSc1ncnc2ccccc12 |  |  |  | MIC | CNCTC TBC1/47 | 125 µM
CCOc1ccc(NC(C)=O)cc1 |  |  |  | MIC | H37Ra | 800 µg/mL
N=c1c2c(ncn1N)Oc1c(c(-c3ccccc3)nn1-c1ccccc1)C2c1ccc(Cl)cc1 |  |  | resazurin | MIC bound | H37Rv | <6.25 µg/mL
Cc1ccc2nc(C)c(C(=O)NCc3ccc(N4CCC(c5ccc(OC(F)(F)F)cc5)CC4)cc3)n2c1 |  |  | resazurin | MIC90 | H37Rv | <2 µM
CCCCCCC[N+]1(CCOC(=O)Nc2ccccc2OCCCCCC)CCCCC1 |  |  |  | MIC | My 331/88 | 8 µM
CCc1nc2ccc(Cl)cn2c1C(=O)NCc1ccc(N2CCCN(c3ccc(S(F)(F)(F)(F)F)cc3)CC2)c(F)c1 |  |  | resazurin | MIC90 | H37Rv | <2 µM
CO[C@H]1/C=C/O[C@@]2(C)Oc3c(C)c(=O)c4c(O)c(c5oc6cc(N7CCCCC7)ccc6nc5c4c3C2=O)NC(=O)/C(C)=C\C=C\[C@H](C)[C@H](O)[C@@H](C)[C@@H](O)[C@@H](C)[C@H](OC(C)=O)[C@@H]1C |  |  |  | MIC | H37Rv | 0.07 µg/mL
Cc1ccn2c(C(=O)NCc3cccc(S(F)(F)(F)(F)F)c3)c(C)nc2c1 |  |  | resazurin | MIC90 | H37Rv | <2 µM
CC(C)=CCC/C(C)=C/CC/C(C)=C/CC1(C)SC(=O)C(C)=C1O |  |  |  | MIC50 | H37Rv | 23 µM
CCCCCOc1ccccc1NC(=O)OCC[N+]1(CCCC)CCCCC1 |  |  |  | MIC | My 331/88 | 125 µM
Oc1ccc(O)cc1 |  |  |  | MIC | H37Ra | 25 µg/mL
COc1cc2c(c(OC)c1OC)-c1c(cc3c(c1OC)OCO3)CC(C)C(C)(O)C2OC(=O)c1ccccc1 |  | 12.5 µg/mL | BACTEC | inhibition | H37Rv | 27%
CCCSc1ncnc2ccccc12 |  |  |  | MIC | CNCTC TBC1/47 | 250 µM
CC(=O)Nc1cc(OCC(=O)O)ccc1S(=O)(=O)c1ccc(OCC(=O)O)cc1NC(C)=O |  |  | BACTEC | MIC bound | H37Rv | >12.5 µg/mL
CN(C)c1ccc(O)c2c1C[C@H]1C[C@H]3[C@H](N(C)C)C(=O)C(C(N)=O)=C(O)[C@@]3(O)C(=O)C1=C2O |  |  |  | MIC90 | 19 strains | >25 µg/mL
CC(=O)c1cc(N)c2nc(C(C)(C)C)ccc2c1 |  | 6.25 µg/mL |  | inhibition | H37Rv | 0%
NNC(=O)c1ccncc1 |  |  |  | MBC | BCG | 0.13 µg/mL
CC1CCc2c(-n3ccnc3)c(F)cc3c(=O)c(C(=O)O)cn1c23 |  |  |  | MIC50 | 100 strains | 25 µg/mL
Cc1ccc(NC(=O)c2cc(Cl)ccc2N)cc1 |  |  |  | MIC | My 331/88 | 62 µM
O=C(O)c1ccc(N2C(=O)CS[N+]23C(=O)Nc2ccc(F)cc23)cc1O |  |  | resazurin | MIC90 | H37Rv | <6.25 µg/mL
O=C(Nc1cccc2cccnc12)C(F)(F)F |  |  |  | MIC | H37Rv | >6.25 µg/mL
CC(C)=CCC1(C)SC(=O)C(C)=C1O |  |  |  | MIC90 | H37Rv | >300 µM
Cc1nnc(N2C(=O)/C(=C/c3ccc(Cl)cc3)N=C2c2ccc(Cl)cc2)nc1/C=C/c1ccc(N(C)C)cc1 |  | 6.25 µg/mL | resazurin | inhibition | H37Rv | -8%
O=C1C=CC(=O)c2ccccc21 |  |  |  | MIC | H37Ra | 100 µg/mL
CCCCC1(C(NC(=O)c2ccccc2Cl)c2ccncc2)C(=O)N(c2ccccc2)N(c2ccccc2)C1=O |  |  | BACTEC | MIC bound | H37Rv | >12.5 µg/mL
CO[C@H]1/C=C/O[C@@]2(C)Oc3c(C)c(O)c4c(O)c(c(/C=N/N5CCN(C6CCCC6)CC5)c(O)c4c3C2=O)NC(=O)/C(C)=C\C=C\[C@H](C)[C@H](O)[C@@H](C)[C@@H](O)[C@@H](C)[C@H](OC(C)=O)[C@@H]1C |  |  |  | MBC | Erdman | 0.25 µg/mL
O=C1C=CC(=NOC(=O)c2ccccc2)C=C1 |  |  | resazurin | MIC bound | H37Rv | >6.25 µg/mL
CN[C@@H]1[C@H](O[C@H]2[C@H](O[C@H]3[C@H](O)[C@@H](O)[C@H](N=C(N)N)[C@@H](O)[C@@H]3N=C(N)N)O[C@@H](C)[C@]2(O)C=O)O[C@@H](CO)[C@H](O)[C@H]1O |  |  |  | MIC | 4931/83 (streptomycin-resistant) | 25–50 µg/mL
CC1(C)O[C@H]2[C@@H](O1)[C@@H](COCC(C[N+]1=NC([N+](=O)[O-])N=C1)OCc1ccc(OC(F)(F)F)cc1)O[C@@H]1OC(C)(C)O[C@@H]12 |  |  | agar | MIC | H37Rv | 6.25 µg/mL
Cc1occc1C(=S)Nc1ccc(Cl)c(C(=O)OCC2CC2)c1 |  |  | BACTEC | MIC bound | H37Rv | >12.5 µg/mL
CO[C@H]1/C=C/O[C@@]2(C)Oc3c(C)c(=O)c4c(O)c(c5oc6cc(N(C)C)ccc6nc5c4c3C2=O)NC(=O)/C(C)=C\C=C\[C@H](C)[C@H](O)[C@@H](C)[C@@H](O)[C@@H](C)[C@H](OC(C)=O)[C@@H]1C |  |  |  | MIC | H37Rv | 0.07 µg/mL
FC(F)(F)c1ccc2c(c1)N(CCCN1CCN(CCC3OCCCO3)CC1)c1ccccc1S2 |  |  | BACTEC | MIC bound | H37Rv | ≤12.5 µg/mL
Cc1cn2c(C(=O)NCc3cccc(S(F)(F)(F)(F)F)c3)c(C)nc2s1 |  |  | resazurin | MIC90 | H37Rv | <2 µM
CC(=O)c1cc(N)c2ncccc2c1C1CCCC1 |  |  |  | MIC | H37Rv | >6.25 µg/mL
Nc1ccc(Cl)cc1C(=O)Nc1ccc(Br)cc1 |  |  |  | MIC | My 331/88 | 31 µM
C=C/C(C)=C/[C@@]1(C)SC(=O)C(C)=C1O |  |  |  | MIC | H37Rv | 240 µM
CCCCCCOc1ccccc1NC(=O)OCC[N+]1(CC)CCCCC1 |  |  |  | MIC | My 331/88 | 62.5 µM
O=C(O)c1ccc(N=Cc2ccc(F)cc2)cc1O |  |  | resazurin | MIC90 | H37Rv | <6.25 µg/mL
Cc1nc(/N=C(\N)Nc2ccc(Cl)c(Cl)c2)ncc1N1CCC(N2CCCC2)CC1 |  |  | BACTEC | MIC bound | H37Rv | ≤12.5 µg/mL
O=C(O)c1ccc(NCN2CCN(CNc3ccc(C(=O)O)c(O)c3)CC2)cc1O |  |  | resazurin | MIC90 | H37Rv | <6.25 µg/mL
NNC(=O)C(CO)c1ccccc1 |  | 12.5 µg/mL | BACTEC | inhibition | H37Rv | 19%
CCC(C)c1ccc(NC(=O)c2cc(Cl)ccc2N)cc1 |  |  |  | MIC | My 331/88 | 16 µM
c1ccc(CSc2ncnc3ccccc23)cc1 |  |  |  | MIC | CNCTC TBC1/47 | 63 µM
COc1c2c(c(OC)c3c1c(=O)c1ccccc1n3C)OCO2 |  | 128 µg/mL | BACTEC | inhibition | H37Rv | 74%
CCCCCCOc1ccccc1NC(=O)OCC[N+]1(CCCC)CCCCC1 |  |  |  | MIC | My 331/88 | 32 µM
O=C1N(C2CCCCC2)CC2C(c3cccnc3)NNC12O |  | 12.8 µg/mL | BACTEC | inhibition | H37Rv | 23%
CCCCCCCCCCC[N+]1(CCOC(=O)Nc2ccccc2OCCCCCC)CCCCC1 |  |  |  | MIC | My 331/88 | 8 µM
CN1C(=O)C23CCCN2C(=O)C1(C)SC(=O)S3 |  | 12.5 µg/mL | BACTEC | inhibition | H37Rv | 56%
C=C(C)/C=C/[C@]12C[C@H](C)[C@H]3CC[C@](C)(N)[C@@H](CC[C@H]1C)[C@@H]32 |  | 16 µg/mL |  | inhibition | H37Rv | 100%
Cc1ccn2c(C(=O)NCc3ccc(N4CCOCC4)c(F)c3)c(C)nc2c1 |  |  | resazurin | MIC90 | H37Rv | <2 µM
COc1ccc(N2C(=O)c3c4c(c5c([nH]c6ncccc65)c3C2=O)CCC(C(C)(C)C)C4)cc1 |  |  | BACTEC | MIC bound | H37Rv | >12.5 µg/mL
Cc1cn2c(C(=O)NCc3ccc4c(c3)CCO4)c(C)nc2s1 |  |  | resazurin | MIC90 | H37Rv | <2 µM
Nc1ccccc1C(=O)Nc1cccc(Cl)c1 |  |  |  | MIC | My 331/88 | >500 µM
O=C1CSC(=S)N1c1ccc(Cl)c(C(F)(F)F)c1 |  | 12.5 µg/mL | BACTEC | inhibition | H37Rv | 0%
COc1c2ccoc2cc2oc(=O)ccc12 |  |  | broth dilution / resazurin | MIC | H37Rv | 1160 µM
CCOC(=O)C(NC(=O)CC)(N1CCN(c2cc3c(cc2F)c(=O)c(C(=O)O)cn3C2CC2)CC1)C(F)(F)F | VERO |  |  | MIC | H37Rv | 0.78 µg/mL
CC(C)=CCC1=C(O)c2ccccc2C(=O)C1=O |  |  |  | MIC | H37Ra | 100 µg/mL
CC[C@H](C)[C@H](N)C(=O)O |  |  | BACTEC | MIC bound | H37Rv | >12.5 µg/mL
O=[N+]([O-])c1cccc2ccc(C3CCCCC3)nc12 |  |  |  | MIC | Rifampicin-resistant | 25 µg/mL
CC(C)=CCCC(C)CCC1(C)SC(=O)C(C)=C1O |  |  |  | MIC90 | H37Rv | 56 µM
O=C(O)c1ccc(-n2[nH]c(=S)n(-c3ccc(F)cc3)c(=O)c2=O)cc1O |  |  | resazurin | MIC90 | H37Rv | <6.25 µg/mL
O=C(O)c1cnccn1 |  | 25 µg/mL |  | inhibition | H37Ra | 20%
Nc1cccc2ccc(C3CCCCC3)nc12 |  | 6.25 µg/mL |  | inhibition | H37Rv | 9%

MIC bound: limit read from a one-dose screen. MIC50, MIC90 and the like: level of inhibition, or share of isolates inhibited. Two numbers with a dash give a range or band. Blank or dashed fields: not listed here. Inhibition is in % at the dose shown (toxicity tests: loss of growth or viability).